Anti-infective test results gathered from many reports (values: NIAID ChemDB through PubChem).

Shared fields: growth or infection tests; species: Mycobacterium tuberculosis

MIC bound comes from a single tested concentration. An empty or dashed field is not shown. MIC50, MIC90 and the like: level of inhibition, or share of isolates inhibited. Lines come from different laboratories, so protocols vary. Percent inhibition refers to the dose given; in toxicity tests it is the harm to the cells. ECn is the concentration giving n% inhibition of infection, replication or growth. a–b is a range or a potency band.

smiles | strain | read-out | read by | dose | result
Cc1ccc2nc(SCc3c(F)cccc3[N+](=O)[O-])[nH]c2c1 | MY 332/88 | MIC | - | - | 62 µM
COc1ccc(C(=O)N(O)CC2=C(C(=O)O)N3C(=O)[C@@H](NC(=O)Cc4ccccc4)C3SC2)cc1 | H37Rv | MIC | - | - | 46.2 µM
Cc1ccc(S(=O)(=O)N/N=C/c2oc(-c3ccccc3Cl)c(-c3ccccc3Cl)c2[N+](=O)[O-])cc1 | H37Rv | inhibition | BACTEC | 12.5 µg/mL | -6%
CC(C)c1ccc2c(c1)CCC1[C@@](C)(COC(=O)CC(=O)O)CCC[C@@]21C | H37Rv (ATCC 27294) | MIC | - | - | 4 µg/mL
c1ccc(-c2cc(N3CCNCC3)nc3nc(N4CCNCC4)ccc23)cc1 | H37Rv | EC50 | - | - | >12.5 µg/mL
O=C1C(=O)c2ccccc2C(O)=C1C(C1=C(O)c2ccccc2C(=O)C1=O)c1ccc(Cl)c(Cl)c1 | H37Rv | MIC | BACTEC | - | ≥12.8 µg/mL
CC(O)c1c(-c2ccccc2)c(-c2ccccc2)n2ccc(C#N)cc12 | H37Rv | EC50 | - | - | <6.25 µg/mL
COc1ccc2c(-c3ccccc3)cc(N3CCNCC3)nc2n1 | H37Rv | inhibition | - | 12.5 µg/mL | 67%
Cc1ccc2nc(SCc3c(F)cccc3Cl)[nH]c2c1 | MY 332/88 | MIC | - | - | 16 µM
CNC(=O)SC1=NS(=O)(=O)c2ccc(Cl)cc2N1 | H37Rv | inhibition | BACTEC | 12.5 µg/mL | 0%
Cc1ccc(C(=O)N(O)CC2=C(C(=O)O)N3C(=O)[C@@H](NC(=O)Cc4ccccc4)C3SC2)cc1 | H37Rv | MIC | - | - | 26.7 µM
CCOC(=O)c1c(C)[nH]c(/C=N/NC(=O)Cn2c(C)c(C(=O)OCC)c(C)c2-c2ccc(Cl)cc2)c1C | H37Rv (ATCC 27294) | EC90 | resazurin | - | >100 µg/mL
Nc1cc(=O)n(-c2ccccc2)[nH]1 | H37Rv | MIC bound | resazurin | - | >6.25 µg/mL
CCOC(=O)N1CCN(c2cc(-c3ccccc3)c3cccnc3n2)CC1 | H37Rv | EC50 | - | - | >12.5 µg/mL
CC[C@H](CC[C@@H](C)[C@H]1CC[C@H]2[C@@H]3CC=C4C[C@@H](O)CC[C@]4(C)[C@H]3CC[C@]12C)C(C)C | H37Rv (ATCC 27294) | MIC | - | - | 128 µg/mL
Oc1ccc2c3c1OC1/C(=N/N=C4\CCC5(O)C6Cc7ccc(O)c8c7C5(CCN6CC5CC5)C4O8)CCC4(O)C(C2)N(CC2CC2)CCC314 | H37Rv | inhibition | BACTEC | 12.5 µg/mL | 18%
Cc1ccc2nc(SCc3ccc(Cl)cc3)[nH]c2c1 | MY 332/88 | MIC | - | - | 32 µM
CC(CCC(=O)N[C@@H](Cc1ccccc1)C(=O)OCc1cn(CC2OC(n3cnc4c(N)ncnc43)[C@@H]3OC(C)(C)O[C@H]23)nn1)[C@H]1CCC2C3C(C[C@H](O)[C@@]21C)[C@@]1(C)CC[C@@H](O)CC1C[C@H]3O | H37Rv | MIC | resazurin | - | 6.74 µM
CC1COc2c(N3CCN(C)CC3)c(F)cc3c(=O)c(C(=O)O)cn1c23 | - | MIC90 | - | - | 0.5–2.4 µg/mL
O=C1C2=C(c3ccccc31)C(c1ccc(F)cc1)N1C(=O)CCSC1=N2 | H37Rv | MIC bound | BACTEC | - | >12.5 µg/mL
CCCCCCCCCCCC(=O)OCC1OC(O[C@H]2CC[C@@]3(C)C(=CCC4C3CC[C@@]3(C)C4CC[C@@H]3[C@H](C)CC[C@@H](CC)C(C)C)C2)C(O)C(O)C1O | H37Rv (ATCC 27294) | MIC | - | - | 32 µg/mL
CCOC(=O)c1c(C)c(-c2ccc(Cl)cc2)n(CC(=O)N/N=C/c2ccc([N+](=O)[O-])o2)c1C | H37Rv (ATCC 27294) | inhibition | resazurin | 6.25 µg/mL | 63%
Cn1cc(NC(=O)Nc2cc(C(=O)Nc3cc(C(=O)Nc4ccc5cc(S(=O)(=O)O)cc(S(=O)(=O)O)c5c4)n(C)n3)n(C)c2)cc1C(=O)Nc1cc(C(=O)Nc2ccc3cc(S(=O)(=O)O)cc(S(=O)(=O)O)c3c2)n(C)n1 | H37Rv | MIC bound | BACTEC | - | >12.5 µg/mL
CCCCCCN1C(=O)C(=O)c2cccc(-c3ccccc3)c21 | H37Ra | MIC | - | - | ≤20 µg/mL
O=C(Cc1ccccc1)N[C@@H]1C(=O)N2C(C(=O)O)=C(CN(O)C(=O)c3ccccc3)CSC12 | H37Rv | MIC | - | - | 53 µM
COc1cc2c(c(OC)c1OC)-c1ccc(SC)c(=O)cc1C(N=C(N[C@@H]1OC[C@H](OC(C)=O)[C@H](OC(C)=O)[C@H]1OC(C)=O)SN(NC(=O)OCc1ccccc1)C(=O)OCc1ccccc1)CC2 | H37Rv | inhibition | resazurin | 6.25 µg/mL | -24%
CC(CCC(=O)N[C@@H](C)C(=O)OCc1cn(CC2OC(n3ccc(=O)[nH]c3=O)[C@@H]3OC(C)(C)O[C@H]23)nn1)[C@H]1CCC2C3C(C[C@H](O)[C@@]21C)[C@@]1(C)CC[C@@H](O)CC1C[C@H]3O | H37Rv | MIC | resazurin | - | 15.12 µM
Cc1ccc2nc(SCc3cccc([N+](=O)[O-])c3)[nH]c2c1 | MY 332/88 | MIC | - | - | >62 µM
CC(=O)O[C@H]1C(=O)[C@]2(C)[C@@H](OC(C)=O)C[C@H]3OC[C@@]3(OC(C)=O)[C@H]2[C@H](OC(=O)c2ccccc2)[C@]2(O)C[C@H](OC(=O)[C@H](OC(C)=O)[C@@H](NC(=O)c3ccccc3)c3ccccc3)C(C)=C1C2(C)C | H37Rv | MIC | - | - | 6.3 µg/mL
N#Cc1ccn2c(-c3ccccc3)c(-c3ccccc3)c(C(O)C3CCCCC3)c2c1 | H37Rv | inhibition | - | 6.25 µg/mL | 90%
C=C(C)[C@@H]1CC[C@]2(C)CCC3(C)[C@H](CC[C@@H]4[C@@]5(C)CC[C@H](O)C(C)(C)[C@@H]5CC[C@]43C)[C@@H]12 | H37Rv (ATCC 27294) | MIC | - | - | 128 µg/mL
Cc1ccc(C(O)c2c(-c3ccccc3)c(-c3ccccc3)n3ccc(C#N)cc23)cc1 | H37Rv | EC50 | - | - | <6.25 µg/mL
CCOC(=O)c1cc(-c2ccc(Cl)cc2)n(C(C)C(=O)N/N=C/c2[nH]c(C)c(C(=O)OCC)c2C)c1C | H37Rv (ATCC 27294) | inhibition | resazurin | 6.25 µg/mL | 60%
Cc1ccc2nc(SCc3cc(C(F)(F)F)cc(C(F)(F)F)c3)[nH]c2c1 | MY 332/88 | MIC | - | - | 32 µM
O=C1C(=O)N(CCN2CCN(Cc3ccccc3)CC2)c2ccc(-c3ccccc3)cc21 | H37Rv | MIC | - | - | ≤20 µg/mL
CSc1nc(-c2ccc(C)cc2)c(C#N)c(=O)[nH]1 | H37Rv | inhibition | BACTEC | 12.5 µg/mL | 0%
C[C@@H]1CN(c2c(F)c(N)c3c(=O)c(C(=O)O)cn(C4CC4)c3c2F)C[C@H](C)N1 | - | MIC50 | - | - | 0.25 µg/mL
N#CC(N=Nc1cccc2ccccc12)C(N)=O | H37Rv | MIC | BACTEC | - | ≥12.5 µg/mL
O=c1ccc2c(-c3ccccc3)cc(N(CCO)CCO)nc2[nH]1 | H37Rv | inhibition | - | 12.5 µg/mL | 1%
COc1ccc(CSc2nc3ccc(C)cc3[nH]2)cc1 | MY 332/88 | MIC | - | - | >32 µM
O=C(Cc1ccccc1)N[C@@H]1C(=O)N2C3=C(CSC12)CN(C(=O)c1ccc(C(F)(F)F)cc1)OC3=O | H37Rv | MIC | - | - | 10.3 µM
CCCCCCCCCCCN1C(=O)C(=O)c2cccc(-c3ccccc3)c21 | H37Ra | MIC | - | - | ≤20 µg/mL
C=C[C@]1(C)CCC2=C(CCC3[C@](C)(CO)CCC[C@@]23C)C1 | H37Rv (ATCC 27294) | MIC | - | - | 64 µg/mL
CN1CCC(O)(/C=C\C(C)(C)O)CC1 | H37Rv | inhibition | resazurin | 6.25 µg/mL | 2%
CN[C@@H]1[C@@H](O)C(O[C@@H]2[C@@H](O)[C@H](OC3O[C@H](CN)[C@@H](O)[C@H](O)[C@H]3O)[C@@H](N)C[C@H]2NC(=O)[C@@H](O)CN)OC[C@]1(C)O | T4 | MIC | - | - | 0.78 µg/mL
CN(C)c1ccc(/C=N/NC(=O)C(=O)NCc2ccco2)cc1 | H37Rv | MIC bound | BACTEC | - | >12.5 µg/mL
CCOC(=O)c1[nH]c(C)c(/C=N/NC(=O)Cn2c(C)c(C(=O)OCC)c(C)c2-c2ccc(Cl)cc2)c1C | H37Rv (ATCC 27294) | inhibition | resazurin | 6.25 µg/mL | 57%
N#Cc1ccn2c(-c3ccccc3)c(-c3ccccc3)c(C(=O)c3ccccc3)c2c1 | H37Rv | EC50 | - | - | >6.25 µg/mL
C/C(=N/NC(=S)NCc1ccccc1)c1nccnc1C | TAC-R | MIC | - | - | 1.6 µg/mL
CC(C)c1ccc2c(c1)CCC1[C@@](C)(CO)CCC[C@@]21C | H37Rv (ATCC 27294) | MIC | - | - | 32 µg/mL
C1=C2CCCC/C=C\C=C\CCN3CC[C@@H]4[C@H](CCCCCC/C=C\C=C/CCN(C2)C[C@H]14)C3 | H37Rv Kurono (ATCC 35812) | MIC | - | - | 3.13 µg/mL
COC(=O)N1CCN(c2cc(-c3ccccc3)c3ccc(OC)nc3n2)CC1 | H37Rv | inhibition | - | 12.5 µg/mL | 0%
CCN(CC)CCNC(=O)c1nn(-c2ccc(C)cc2)c2c1N(C)S(=O)(=O)c1ccccc1-2 | H37Rv | MIC bound | resazurin | - | >6.25 µg/mL
Cc1ccc2nc(SCc3cccc(Br)c3)[nH]c2c1 | MY 332/88 | MIC | - | - | 32 µM
C=C[C@]1(C)CCC2=C(CCC3[C@](C)(COC(=O)CC(=O)OC)CCC[C@@]23C)C1 | H37Rv (ATCC 27294) | MIC | - | - | 4 µg/mL
CCOC(=O)c1[nH]c2nc(N)ncc2c(=O)c1C | H37Rv | inhibition | BACTEC | 12.5 µg/mL | 0%
CC(CCC(=O)OCc1cn(CC2OC(n3ccc(=O)[nH]c3=O)[C@@H]3OC(C)(C)O[C@H]23)nn1)[C@H]1CCC2C3C(C[C@H](O)[C@@]21C)[C@@]1(C)CC[C@@H](O)CC1C[C@H]3O | H37Rv | MIC | resazurin | - | 8.27 µM
CCCCCN1C(=O)C(=O)c2cccc(-c3ccccc3)c21 | H37Rv | MIC | - | - | ≤20 µg/mL
CCOC(=O)c1cc(-c2ccc(Cl)cc2)n(C(C)C(=O)N/N=C/c2cn(C(C)=O)c3ccccc23)c1C | H37Rv (ATCC 27294) | inhibition | resazurin | 6.25 µg/mL | 27%
O=C(Cc1ccccc1)N[C@@H]1C(=O)N2C(C(=O)O)=C(CN(O)C(=O)c3ccc(C(F)(F)F)cc3)CSC12 | H37Rv | MIC | - | - | 126.6 µM
CCOC(=O)N1CCN(c2ccc3c(-c4ccccc4)cc(=O)[nH]c3n2)CC1 | H37Rv | inhibition | - | 12.5 µg/mL | 0%
Cc1nnc2sc(N/N=C/c3ccccc3)nn12 | H37Rv | MIC bound | resazurin | - | >6.25 µg/mL
Cc1ccc2nc(SCc3ccc(Br)cc3)[nH]c2c1 | MY 332/88 | MIC | - | - | 32 µM
Cc1nn(C(=O)c2ccncc2)c(-c2ccccc2)c1N=Nc1nc2ccc([N+](=O)[O-])cc2s1 | H37Rv | MIC bound | resazurin | - | <6.25 µg/mL
CC(CCC(=O)N[C@@H](Cc1ccccc1)C(=O)OCc1cn(CC2OC(n3cnc4c(N)ncnc43)[C@@H]3OC(C)(C)O[C@H]23)nn1)[C@H]1CCC2C3CCC4C[C@H](O)CC[C@]4(C)C3C[C@H](O)[C@@]21C | H37Rv | MIC | resazurin | - | 6.86 µM
N#Cc1ccn2c(-c3ccccc3)c(-c3ccccc3)c(Br)c2c1 | H37Rv | EC50 | - | - | <6.25 µg/mL
Cc1ccc(S(=O)(=O)NC(=O)NC2=NC(C)(C)N(c3ccc(Cl)c(Cl)c3)C(N)=N2)cc1 | H37Rv | inhibition | BACTEC | 12.5 µg/mL | -6%
CC(CCC(=O)N[C@@H](Cc1ccccc1)C(=O)OCc1cn(CC2OC(n3ccc(=O)[nH]c3=O)[C@@H]3OC(C)(C)O[C@H]23)nn1)[C@H]1CCC2C3CCC4C[C@H](O)CC[C@]4(C)C3C[C@H](O)[C@@]21C | H37Rv | MIC | resazurin | - | 14.09 µM
CC(=O)Nc1ccc2c(-c3ccccc3)cc(N3CCN(C(C)=O)CC3)nc2n1 | H37Rv | inhibition | - | 12.5 µg/mL | 0%
O=C1N(Cl)C(=O)C(c2ccccc2)(c2ccccc2)N1Cl | H37Rv | inhibition | BACTEC | 12.5 µg/mL | -23%
CCC(C)[C@H](NC(=O)CCC(C)[C@H]1CCC2C3C(C[C@H](O)[C@@]21C)[C@@]1(C)CC[C@@H](O)CC1C[C@H]3O)C(=O)OCc1cn(CC2OC(n3ccc(=O)[nH]c3=O)[C@@H]3OC(C)(C)O[C@H]23)nn1 | H37Rv | MIC | resazurin | - | 7.19 µM

The last 5 rows once more:

smiles | strain | read-out | read by | dose | result
Cc1ccc(S(=O)(=O)NC(=O)NC2=NC(C)(C)N(c3ccc(Cl)c(Cl)c3)C(N)=N2)cc1 | H37Rv | inhibition | BACTEC | 12.5 µg/mL | -6%
CC(CCC(=O)N[C@@H](Cc1ccccc1)C(=O)OCc1cn(CC2OC(n3ccc(=O)[nH]c3=O)[C@@H]3OC(C)(C)O[C@H]23)nn1)[C@H]1CCC2C3CCC4C[C@H](O)CC[C@]4(C)C3C[C@H](O)[C@@]21C | H37Rv | MIC | resazurin | - | 14.09 µM
CC(=O)Nc1ccc2c(-c3ccccc3)cc(N3CCN(C(C)=O)CC3)nc2n1 | H37Rv | inhibition | - | 12.5 µg/mL | 0%
O=C1N(Cl)C(=O)C(c2ccccc2)(c2ccccc2)N1Cl | H37Rv | inhibition | BACTEC | 12.5 µg/mL | -23%
CCC(C)[C@H](NC(=O)CCC(C)[C@H]1CCC2C3C(C[C@H](O)[C@@]21C)[C@@]1(C)CC[C@@H](O)CC1C[C@H]3O)C(=O)OCc1cn(CC2OC(n3ccc(=O)[nH]c3=O)[C@@H]3OC(C)(C)O[C@H]23)nn1 | H37Rv | MIC | resazurin | - | 7.19 µM